# PSTVd loop 6 mutant pool in Nicotiana benthamiana

The pool varies loop 6 of the PSTVd intermediate strain in the pattern UNNNCGNNNG; wild type is UGACCGCGAG (upper and lower strand joined, each 5' to 3', the first 5 letters being the upper strand, closing pairs included).

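Three N. benthamiana plants were inoculated with the whole mutant pool. Samples came from the inoculated region at 5 days, the leaf margin at 10 and upper systemic leaves at 12.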

Values are reads per thousand in the sample; higher means more abundant, 0 means not found.
Each site shows the three plants.
"Pool" is the share in the plasmid pool used as inoculum, on the same scale.
The inoculated region was read from the minus strand, the other sites from the plus strand.

For UAAGCGUUAG (pool 0.445) the result was inoculated region 0.626 / 0.575 / 0.516; leaf margin 0.110 / 0.0757 / 0.116; systemic leaves 0 / 0 / 0. With UCCGCGCAAG (pool 0.183) the assay gave inoculated region 0.174 / 0.162 / 0.184; leaf margin 0 / 0 / 0; systemic leaves 0 / 0 / 0. UCCGCGAGAG (pool 0.248) read inoculated region 0.0695 / 0.0539 / 0.0922; leaf margin 0 / 0 / 0; systemic leaves 0 / 0 / 0. With UCACCGUUCG (pool 0.209) the assay gave inoculated region 0.0521 / 0.144 / 0.148; leaf margin 0.0552 / 0 / 0.116; systemic leaves 0 / 0 / 0. With UCGGCGGUAG (pool 0.288) the assay gave inoculated region 0.139 / 0.108 / 0.0553; leaf margin 0 / 0 / 0.0232; systemic leaves 0 / 0 / 0. With UAGACGGGGG (pool 0.105) the assay gave inoculated region 0.0869 / 0.108 / 0.0184; leaf margin 0.0276 / 0 / 0; systemic leaves 0 / 0 / 0. UCUCCCCGAG (pool 0.0131) gave inoculated region 0 / 0 / 0; leaf margin 0 / 0 / 0; systemic leaves 0 / 0 / 0. UCGUCGAACG (pool 0.471) read inoculated region 0.0695 / 0.0719 / 0.0553; leaf margin 0 / 0 / 0.0464; systemic leaves 0 / 0 / 0. UCCCCGUCUG (pool 0.510) gave inoculated region 0.0869 / 0.0359 / 0.0184; leaf margin 0 / 0.0252 / 0.0232; systemic leaves 0 / 0 / 0.

UAUACGCUGG (pool 0.196) gave inoculated region 0.104 / 0.0180 / 0.111; leaf margin 0.0276 / 0 / 0; systemic leaves 0 / 0 / 0. UCUGCGUCCG (pool 0.261) read inoculated region 0.122 / 0.0539 / 0.0553; leaf margin 0 / 0 / 0; systemic leaves 0 / 0 / 0. UGGACGCCUG (pool 0.340) gave inoculated region 0.139 / 0.198 / 0; leaf margin 0 / 0 / 0; systemic leaves 0 / 0 / 0. UUCUCGCUAG (pool 0.157) gave inoculated region 0.0521 / 0.126 / 0.0922; leaf margin 0 / 0 / 0.0232; systemic leaves 0 / 0 / 0. With UUAUCGAGGG (pool 0.235) the assay gave inoculated region 0.0521 / 0.0898 / 0.0553; leaf margin 0 / 0 / 0; systemic leaves 0 / 0 / 0.0205. UUGGCGUCCG (pool 0.314) gave inoculated region 0.156 / 0.108 / 0.0553; leaf margin 0 / 0 / 0; systemic leaves 0 / 0 / 0.0205. UGGACGCCCG (pool 0.588) read inoculated region 0.0521 / 0.144 / 0.166; leaf margin 0 / 0 / 0; systemic leaves 0 / 0 / 0. UUACCGUAGG (pool 0.235) read inoculated region 0.0869 / 0.162 / 0.184; leaf margin 0.0552 / 0 / 0.0464; systemic leaves 0 / 0 / 0. With UAGCCGUAUG (pool 0.209) the assay gave inoculated region 0.191 / 0.180 / 0.0738; leaf margin 0.193 / 0.0757 / 0.0232; systemic leaves 0 / 0 / 0.

For UAUACGUUUG (pool 0.431) the result was inoculated region 0.191 / 0.0359 / 0.0738; leaf margin 0 / 0 / 0; systemic leaves 0 / 0 / 0. UGACAGGCUG (pool 0.0131) gave inoculated region 0 / 0.0180 / 0; leaf margin 0 / 0 / 0.0232; systemic leaves 0 / 0 / 0. UAUGCGACGG (pool 0.183) read inoculated region 0.104 / 0.0719 / 0.0553; leaf margin 0 / 0 / 0.0232; systemic leaves 0 / 0 / 0. With UACUCAGCGG (pool 0.0131) the assay gave inoculated region 0 / 0 / 0; leaf margin 0 / 0 / 0; systemic leaves 0 / 0 / 0. UCUGCGGGCG (pool 0.209) gave inoculated region 0.174 / 0.108 / 0.0922; leaf margin 0 / 0 / 0; systemic leaves 0 / 0 / 0. UUGACGUAUG (pool 0.275) gave inoculated region 0.139 / 0.0898 / 0.111; leaf margin 0.469 / 0 / 0.0464; systemic leaves 0 / 0 / 0. UACGCGGGUG (pool 0.235) gave inoculated region 0.139 / 0.0719 / 0.0738; leaf margin 0 / 0 / 0; systemic leaves 0 / 0 / 0. For UGCCCGCCUG (pool 0.353) the result was inoculated region 0.139 / 0.0359 / 0.129; leaf margin 0 / 0 / 0; systemic leaves 0 / 0 / 0. UUAACGCUGG (pool 0.222) read inoculated region 0.191 / 0.0898 / 0.0369; leaf margin 0 / 0 / 0; systemic leaves 0 / 0 / 0.

With UGUCCGUUCG (pool 0.235) the assay gave inoculated region 0.209 / 0.0359 / 0.148; leaf margin 0.0276 / 0 / 0.0464; systemic leaves 0 / 0 / 0. For UAUACGAAAG (pool 0.118) the result was inoculated region 0.156 / 0.0180 / 0.0553; leaf margin 0 / 0 / 0.0232; systemic leaves 0 / 0 / 0. UAGACGUUGG (pool 0.222) read inoculated region 0.0521 / 0.0719 / 0.129; leaf margin 0 / 0 / 0; systemic leaves 0 / 0 / 0. For UUAACGUCAG (pool 0.327) the result was inoculated region 0.782 / 0.629 / 0.609; leaf margin 0.0828 / 0.202 / 0.0696; systemic leaves 0 / 0 / 0. UGAUCGUGUG (pool 0.353) gave inoculated region 0.226 / 0.144 / 0.0922; leaf margin 0 / 0 / 0.0464; systemic leaves 0 / 0 / 0. For UUGCAGCACG (pool 0.0131) the result was inoculated region 0 / 0 / 0; leaf margin 0 / 0 / 0; systemic leaves 0 / 0 / 0. With UCUCCGCGAG (pool 0.131) the assay gave inoculated region 0.156 / 0.126 / 0.277; leaf margin 0.166 / 0.479 / 0; systemic leaves 0.0180 / 0.0202 / 0.0615. With UCGUCGAUGG (pool 0.445) the assay gave inoculated region 0.174 / 0.144 / 0.0738; leaf margin 0 / 0 / 0; systemic leaves 0 / 0 / 0. UCAGCGGGGC (pool 0.0131) read inoculated region 0 / 0 / 0; leaf margin 0 / 0 / 0; systemic leaves 0 / 0 / 0.

UGAACGUCUG (pool 0.248) read inoculated region 0.209 / 0.0898 / 0.240; leaf margin 0.0276 / 0 / 0.0928; systemic leaves 0 / 0 / 0. With UAGGCGUAUG (pool 0.353) the assay gave inoculated region 0.0869 / 0.108 / 0.0922; leaf margin 0.248 / 0 / 0; systemic leaves 0 / 0 / 0.

A selection of 4 entries from above:

For UCGGCGGUAG (pool 0.288) the result was inoculated region 0.139 / 0.108 / 0.0553; leaf margin 0 / 0 / 0.0232; systemic leaves 0 / 0 / 0.
For UUAACGCUGG (pool 0.222) the result was inoculated region 0.191 / 0.0898 / 0.0369; leaf margin 0 / 0 / 0; systemic leaves 0 / 0 / 0.
For UCGUCGAUGG (pool 0.445) the result was inoculated region 0.174 / 0.144 / 0.0738; leaf margin 0 / 0 / 0; systemic leaves 0 / 0 / 0.
For UGAACGUCUG (pool 0.248) the result was inoculated region 0.209 / 0.0898 / 0.240; leaf margin 0.0276 / 0 / 0.0928; systemic leaves 0 / 0 / 0.

Sequences that differ at fixed positions probably stem from PCR or sequencing errors, and defective variants can be carried along by functional ones.
Wild type was 20.7 per thousand in the pool and the most common sequence in every sample (inoculated region 195, 198, 203; leaf margin 629, 591, 734; systemic leaves 942, 870, 868).
With 36,220-57,551 reads a sample, very low values are single reads.

Data from the supplement of Wu et al. 2024, doi:10.1371/journal.ppat.1012142.